Measured values from several laboratories, pooled; numbers as filed in NIAID ChemDB.

Common to all: whole-cell or culture tests; agent: HIV-1; read by: syncytia; measure: EC50

Neighbouring rows are from separate reports. ECn is the concentration giving n% inhibition of infection, replication or growth. An empty or dashed field is not shown.

structure | cells | changes | strain or isolate | result
Cc1cn([C@H]2C[C@H](N=[N+]=[N-])[C@@H](CO)O2)c(=O)[nH]c1=O | C8166 |  | IIIB | 0.002 µM
CC(C)(C)NC(=O)[C@@H]1C[C@@H]2CCCC[C@@H]2CN1C[C@@H](O)[C@H](Cc1ccccc1)NC(=O)[C@H](CC(N)=O)NC(=O)c1ccc2ccccc2n1 | HUT-78/IIIB/LAI + HUT 78 |  | IIIB/LAI | >44 µM
Nc1ccn([C@H]2CC[C@@H](CO)O2)c(=O)n1 | CEM |  | IIIB | 0.035 ± 0.007 µM
COc1cc([C@@H]2c3cc(O)c(OC)cc3C[C@@H](CO)[C@@H]2CO)ccc1O | C8166 |  | IIIB | 88.69 µM
NCCCN1CCCN(CCCN)CCN(CCCN)CCCN(CCCN)CC1 | MT-4 |  | LAV | >50 µM
O=c1[nH]cnc2c1ncn2[C@H]1CC[C@@H](CO)O1 | JM |  | GB8 | 3.2 µM
COc1ccc(S(=O)(=O)Nc2ccccc2OCC(=O)Nc2ccc(S(N)(=O)=O)cc2C)cc1 | C8166 |  | IIIB | 26.6 µM
C=C(C)[C@@H]1CC[C@]2(CCO)CC[C@]3(C)C(CCC4[C@@]5(C)CC/C(=C\O)C(C)(C)C5CC[C@]43C)C12 | C8166 |  | IIIB | 103 µM
C[C@H]1CN2CCC[C@H]3CCCCC[C@@H]4C(=O)[C@@H](C)CN5CCC[C@@H](CCCCC[C@H](C1=O)[C@@H]32)[C@H]45 | MT-2 |  | MN | 21.2 µM
Cc1cn([C@@H]2O[C@H](CO[Si](C)(C)C(C)(C)C)C3(OS(=O)(=O)C=C3N)[C@H]2O[Si](C)(C)C(C)(C)C)c(=O)n(C)c1=O | CEM | RT-E138K | IIIB | >33.1 µM
Cc1ccnc2c1NC(=O)c1cccnc1N2C1CC1 | CEM | RT-L100I | IIIB-TIBO(0.5)(RT-L100I) | 0.05 µg/mL
CC(C)CC(NC(=O)C(Cc1ccccc1)NC(=O)C(N)CO)C(=O)NC(C(=O)O)C(C)O | MOLT-4 (HIV-1 IIIB) / M8166 + MOLT-4 |  | IIIB | 158 µM
O=c1[nH]cnc2c1ncn2[C@H]1CC[C@@H](CO)O1 | CEM |  | IIIB | 4.6 ± 2.6 µM
Cc1cn([C@H]2C[C@H](N=[N+]=[N-])[C@@H](COC(=O)C(=O)N3CCCC3C(=O)N[C@@H](Cc3ccccc3)C(=O)OCc3ccccc3)O2)c(=O)[nH]c1=O | MOLT-4 (HIV-1 IIIB) / M8166 + MOLT-4 |  | IIIB | >150 µM
Nc1ccn([C@H]2CC[C@@H](CO)O2)c(=O)n1 | CEM | RT-Y181C | IIIB-Nevirapine(1.0)(RT-Y181C) | 0.078 µM
CCOCn1c(Cc2ccccc2)c(CC)c(=O)[nH]c1=O | CEM |  | IIIB | 0.0026 ± 0.002 µg/mL
Cc1cn([C@H]2C[C@H](N=[N+]=[N-])[C@@H](CO)O2)c(=O)[nH]c1=O | CEM |  | IIIB | 0.003 µM
CCc1cc(NCc2nc3c(Cl)ccc(Cl)c3o2)c(=O)[nH]c1C | PBL |  | D34 | 0.03 µM
Nc1ncnc2c1ncn2[C@H]1CC[C@@H](COC(=O)C(=O)N2CCCC2C(=O)N[C@H](Cc2ccccc2)C(=O)OCc2ccccc2)O1 | MOLT-4 (HIV-1 IIIB) / M8166 + MOLT-4 |  | IIIB | >150 µM
Cc1cn([C@H]2C[C@H](F)[C@@H](CP(=O)(O)O)O2)c(=S)[nH]c1=O | CEM |  |  | 0.5 µM
O=C(NCCCCCCN1CCCN(CCCCCCNC(=O)OCc2ccccc2)CCN(CCCCCCNC(=O)OCc2ccccc2)CCCN(CCCCCCNC(=O)OCc2ccccc2)CC1)OCc1ccccc1 | MT-4 |  | LAV | >1 µM
CC(C)(C)[Si](C)(C)OC[C@H]1O[C@@H](n2ccc(=O)[nH]c2=O)[C@H](O[Si](C)(C)C(C)(C)C)C12OS(=O)(=O)C=C2N | MOLT-4 |  | IIIB | 0.174 µM
Nc1ncnc2c1ncn2[C@H]1C=C[C@@H](CO)O1 | CEM |  | IIIB | 29 µM
CCn1c(=O)c(C)cn([C@@H]2O[C@H](CO[Si](C)(C)C(C)(C)C)C3(OS(=O)(=O)C=C3N)[C@H]2O[Si](C)(C)C(C)(C)C)c1=O | CEM |  | IIIB WT | 0.049 µM
Cc1ccnc2c1NC(=O)c1cccnc1N2C1CC1 | CEM | RT-C181I | IIIB | >75 µM
COc1ccc(S(=O)(=O)Nc2ccccc2OCC(=O)Nc2ccc(S(N)(=O)=O)cc2)cc1 | C8166 |  | IIIB | >203 µM
CCOCn1c(Cc2cc(C)cc(C)c2)c(CC)c(=O)[nH]c1=O | CEM | RT-C181I | IIIB | 0.35 µM
Cc1cccc2c1OP(=O)(OC[C@@H]1C=C[C@H](n3cc(C)c(=O)[nH]c3=O)O1)OC2 | CEM + CEM/O |  | IIIB | 0.1 µM
CC(=O)ON1COC[C@H]2O[C@@H](n3cc(C)c(=O)[nH]c3=O)C[C@@H]21 | CEM |  | IIIB | >50 µg/mL
Cc1cn([C@H]2C[C@H](N=[N+]=[N-])[C@@H](CO)O2)c(=O)[nH]c1=O | SupT1 + Sup-T1 |  | DV | 0.04 µM
NS(=O)(=O)c1ccc(NC(=O)COc2ccccc2NS(=O)(=O)c2ccc([N+](=O)[O-])cc2)cc1 | C8166 |  | IIIB | 4.482 µM
OC[C@@H]1[C@@H](O)[C@@H](O)[C@H]2[C@@H](O)CCN21 | JM |  | GB8 | 16 µM
COC(=O)[C@H](C)NP(=O)(OC[C@@H]1C=C[C@H](n2cnc3c(N)ncnc32)O1)Oc1ccccc1 | CEM |  | IIIB | 0.006 µM
CC(C)=CCN1Cc2cc(Cl)cc3[nH]c(=S)n(c23)C[C@@H]1C | CEM | RT-E138K | IIIB | 0.25 µM
Nc1ccn([C@H]2CC[C@@H](COC(=O)C(=O)N3CCCC3C(=O)N[C@H](Cc3ccccc3)C(=O)OCc3ccccc3)O2)c(=O)n1 | MOLT-4 (HIV-1 IIIB) / M8166 + MOLT-4 |  | IIIB | >150 µM
Cc1cn([C@H]2C=C[C@@H](CO)O2)c(=O)[nH]c1=O | CEM |  | IIIB | 0.35 µM
O=C(NCCCN1CCCN(CCCNC(=O)OCc2ccccc2)CCCN(CCCNC(=O)OCc2ccccc2)CCN(CCCNC(=O)OCc2ccccc2)CCC1)OCc1ccccc1 | MT-4 |  | LAV | >50 µM
Cc1cn([C@H]2C[C@H](N=[N+]=[N-])[C@@H](COC(=O)C(=O)N[C@@H](CO)C(=O)N[C@@H](Cc3ccccc3)C(=O)N[C@@H](CC(C)C)C(=O)N[C@H](C(=O)O)[C@@H](C)O)O2)c(=O)[nH]c1=O | MOLT-4 (HIV-1 IIIB) / M8166 + MOLT-4 |  | IIIB | >100 µM
C[C@@H](Cn1cnc2c(N)nc(N)nc21)OCP(=O)(O)O | CEM |  | IIIB | 6.6 µM
Cc1c(N)nc(N)nc1OCCOCP(=O)(O)O | CEM |  | IIIB | 0.23 µM
NS(=O)(=O)c1ccc(NC(=O)COc2ccccc2NS(=O)(=O)c2ccc(Cl)cc2)cc1 | C8166 |  | IIIB | 0.161 µM
Cc1cn([C@H]2C[C@@H]3[C@@H](COCN3O)O2)c(=O)[nH]c1=O | CEM |  | IIIB | 20 µg/mL
CC(C)=CCOc1cc(NC(=S)c2ccoc2C)ccc1Cl | CEM |  | IIIB | 0.0015 µg/mL
CC(=O)[C@]12CCC(C)(C)C=C1C1=CCC3[C@@]4(C)CCC(=O)C(C)(C)C4CC[C@@]3(C)[C@]1(C)CC2 | C8166 |  | IIIB | 6.16 µM
Cn1cnc2c(ncn2[C@@H]2O[C@H](CO[Si](C)(C)C(C)(C)C)C3(OS(=O)(=O)C=C3N)[C@H]2O[Si](C)(C)C(C)(C)C)c1=O | C8166 |  | IIIB | 0.1 µg/mL
Cc1cc(S(N)(=O)=O)ccc1NC(=O)COc1ccccc1NS(=O)(=O)c1ccc([N+](=O)[O-])cc1 | C8166 |  | IIIB | 9.519 µM
C[C@H](Cn1cnc2c(N)nc(N)nc21)OCP(=O)(O)O | CEM |  | IIIB | 0.76 µM
Cc1cn([C@H]2C[C@H](F)[C@@H](CO)O2)c(=S)[nH]c1=O | CEM |  |  | 0.5 µM
COc1ccc2c(c1)N(C(=O)OC(C)C)[C@@H](CSC)C(=S)N2 | CEM |  | IIIB WT | 0.00294 µM
NCCCCCN1CCCN(CCCCCN)CCN(CCCCCN)CCCN(CCCCCN)CC1 | MT-4 |  | LAV | 5 µM
CC(C)=CCN1Cc2cc(Cl)cc3[nH]c(=S)n(c23)C[C@@H]1C | CEM | RT-E138K | IIIB | 0.311 µM
NS(=O)(=O)c1ccc(NC(=O)COc2ccccc2NS(=O)(=O)c2ccccc2)cc1 | C8166 |  | IIIB | 8.407 µM
Cc1cn([C@H]2C=C[C@@H](COP3(=O)OCc4ccc5ccccc5c4O3)O2)c(=O)[nH]c1=O | CEM + CEM/O |  | IIIB | 0.11 µM
O[C@@H]1[C@@H](O)[C@@H](O)CN2CC[C@@H](O)[C@@H]12 | JM |  | GB8 | 7.8 µM
Cc1ccc(S(=O)(=O)Nc2cc(Cl)ccc2OCC(=O)Nc2ccc(S(N)(=O)=O)cc2)cc1 | C8166 |  | IIIB | 0.108 µM
C[C@@H]1O[C@@H](OC[C@H]2O[C@@H](Oc3c(-c4ccc(OS(=O)(=O)O)c(OS(=O)(=O)O)c4)oc4cc(OS(=O)(=O)O)cc(OS(=O)(=O)O)c4c3=O)[C@H](OS(=O)(=O)O)[C@@H](OS(=O)(=O)O)[C@@H]2OS(=O)(=O)O)[C@H](OS(=O)(=O)O)[C@H](OS(=O)(=O)O)[C@H]1OS(=O)(=O)O | C8166 |  | IIIB X4 | 2.3 µM
OC[C@@H]1[C@@H](O)[C@H](O)[C@@H]2[C@@H](O)CCN21 | JM |  | GB8 | 18 µM
CN(C)c1ncnc2c1ncn2[C@@H]1O[C@H](CO[Si](C)(C)C(C)(C)C)C2(OS(=O)(=O)C=C2N)[C@H]1O[Si](C)(C)C(C)(C)C | CEM |  | IIIB | 0.15 µg/mL
CC(C)=CCN1Cc2cccc3[nH]c(=S)n(c23)C[C@@H]1C | PBL |  | D34 | 0.06 µM
NCCCCN1CCCN(CCCCN)CCCN(CCCCN)CCN(CCCCN)CCC1 | MT-4 |  | LAV | >10 µM
Nc1ncnc2c1ncn2CCOCP(=O)(O)O | CEM |  | IIIB | 3.3 µM
COC(=O)[C@H](C)NP(=O)(OC[C@@H]1CC[C@H](n2ccc(N)nc2=O)O1)Oc1ccccc1 | CEM |  | IIIB | 0.6 µM
CC[C@H](C)[C@H](NC(=O)[C@H](CCC(=O)O)NC(=O)[C@@H](NC(=O)[C@H](C)N)C(C)C)C(=O)NCC(=O)N[C@@H](C)C(=O)O | HeLa + HELA CD4+ |  | BH10 | ~750 µM
Nc1ncnc2c1ncn2[C@H]1CC[C@@H](CO)O1 | JM |  | IIIB | 1.6 µM
Cc1cn([C@@H]2O[C@H](CO)C3(OS(=O)(=O)C=C3N)[C@H]2O[Si](C)(C)C(C)(C)C)c(=O)[nH]c1=O | CEM |  | IIIB | >80 µM
NCCCCCCN1CCCN(CCCCCCN)CCCN(CCCCCCN)CCN(CCCCCCN)CCC1 | MT-4 |  | LAV | >50 µM
Cc1cn([C@@H]2O[C@H](CO[Si](C)(C)C(C)(C)C)[C@@]3(OS(=O)(=O)C=C3N)[C@H]2O[Si](C)(C)C(C)(C)C)c(=O)[nH]c1=O | CEM | RT-E138K | IIIB | 4.6 µM